Results of unrelated studies side by side (data: NIAID ChemDB).

Common to all: target-level tests; organism: HIV-1; protein: Reverse transcriptase; endpoint: IC50

Blank or dashed fields: not listed here. Lines come from different laboratories, so protocols vary. ICn is the concentration giving n% inhibition.

smiles,strain,mutations,read by,value
C#CCCC(=O)Nc1ccc(NC(=O)CSc2nnnn2-c2ccc(C(C)(C)C)cc2Cl)c(Cl)c1,,RT-K103 Y181C,PicoGreen / fluorescence,<1 µM
CCN1c2ncc(CCOc3ccc(-c4cc(C(=O)O)ccc4C)cc3C)cc2C(=O)N(C)c2cccnc21,IIIB,RT-K103N Y181C,nucleotide incorporation / radiometric,>0.1 µM
CCN1c2ncc(CCOc3ccc(CCC(=O)O)c4c3CCCC4)cc2C(=O)N(C)c2cccnc21,,RT-Y188L,nucleotide incorporation / radiometric,>1 µM
CCc1cc(NCc2nc3c(C)ccc(C)c3o2)c(=O)[nH]c1C,,RT-K103N Y188C,nucleotide incorporation,3.32 µM
Cc1ccc(-n2nnnc2SCC(=O)Nc2ccc(-c3nn[nH]n3)cc2Cl)c(Cl)c1,WT,,PicoGreen / fluorescence,<1 µM
CCN1c2ncc(CCOc3ccc(-c4ccc(CCC(=O)O)cc4)cc3C)cc2C(=O)N(C)c2cccnc21,IIIB,,nucleotide incorporation / radiometric,<0.05 µM
CCN1c2ncc(CCOc3ccc(CC(C)C(=O)O)c4ccccc34)cc2C(=O)Nc2c(C)ccnc21,,RT-V106A,nucleotide incorporation / radiometric,>1 µM
CCN1c2ncc(CCOc3ccc(-c4cc(CC(=O)O)ccc4C)cc3C)cc2C(=O)N(C)c2cccnc21,IIIB,,nucleotide incorporation / radiometric,<0.05 µM
CC(C)(C#Cc1ccc(NC(=O)CSc2nnnn2-c2ccc(C3CC3)cc2Cl)c(Cl)c1)NC(=O)c1ccccc1,WT,,PicoGreen / fluorescence,<1 µM
CCN1c2ncc(CCOc3ccc(/C=C(\C)C(=O)O)c4ccccc34)cc2C(=O)N(C)c2ccc(F)nc21,WT,,nucleotide incorporation / radiometric,<0.1 µM
CN1CCN(CC2(C#Cc3ccc(NC(=O)CSc4nnnn4-c4ccc(C5CC5)cc4Cl)c(Cl)c3)CC2)CC1,,RT-K103 Y181C,PicoGreen / fluorescence,<1 µM
COc1ccc2c(C3CC3)ccc(-n3c(Br)nnc3SCC(=O)Nc3ccc(S(=O)(=O)O)cc3Cl)c2c1,,,nucleotide incorporation / radiometric,<0.05 µM
CC(C)(C)c1ccc(-n2nnnc2SCC(=O)Nc2ccc(C(=O)Nc3ccc(CCC(=O)O)cc3)cc2Cl)c(Cl)c1,,RT-K103 Y181C,PicoGreen / fluorescence,<1 µM
CCN1c2ncc(CCOc3ccc4cc(C(=O)NN)ccc4c3)cc2C(=O)N(C)c2cccnc21,,RT-V106A,nucleotide incorporation / radiometric,<0.1 µM
CCN1c2ncc(CCOc3ccc(-c4cccc(CC(=O)O)c4)cc3)cc2C(=O)N(C)c2cccnc21,IIIB,,nucleotide incorporation / radiometric,<0.05 µM

The last 2 rows once more:

smiles | strain | mutations | read by | value
CCN1c2ncc(CCOc3ccc4cc(C(=O)NN)ccc4c3)cc2C(=O)N(C)c2cccnc21 |  | RT-V106A | nucleotide incorporation / radiometric | <0.1 µM
CCN1c2ncc(CCOc3ccc(-c4cccc(CC(=O)O)c4)cc3)cc2C(=O)N(C)c2cccnc21 | IIIB |  | nucleotide incorporation / radiometric | <0.05 µM